Source: publication PMC9104152, “Phosphoproteomics Unravel HBV Triggered Rewiring of Host Phosphosignaling Events” (International Journal of Molecular Sciences, 2022)

Each molecule was assayed on HepG2-NTCP cells (assay: TMT-based phosphoproteome profiling of HBV-infected vs mock HepG2-NTCP (HBV/mock ratio)). Settings: phosphosite abundance ratio of host protein, HBV-infected vs mock HepG2-NTCP, 7dpi, sheet Up-regulated.
Set-up: species or system human

Molecule | HBV/mock
Q9UK58 1xPhospho [S352(100)] (protein, UniProt Q9UK58 1-526, looked up, phosphorylated S352) Cyclin-L1: MASGPHSTATAAAAASSAAPSAGGSSSGTTTTTTTTTGGILIGDRLYSEVSLTIDHSLIPEERLSPTPSMQDGLDLPSETDLRILGCELIQAAGILLRLPQVAMATGQVLFHRFFYSKSFVKHSFEIVAMACINLASKIEEAPRRIRDVINVFHHLRQLRGKRTPSPLILDQNYINTKNQVIKAERRVLKELGFCVHVKHPHKIIVMYLQVLECERNQTLVQTAWNYMNDSLRTNVFVRFQPETIACACIYLAARALQIPLPTRPHWFLLFGTTEEEIQEICIETLRLYTRKKPNYELLEKEVEKRKVALQEAKLKAKGLNPDGTPALSTLGGFSPASKPSSPREVKAEEKSPISINVKTVKKEPEDRQQASKSPYNGVRKDSKRSRNSRSASRSRSRTRSRSRSHTPRRHYNNRRSRSGTYSSRSRSRSRSHSESPRRHHNHGSPHLKAKHTRDDLKSSNRHGHKRKKSRSRSQSKSRDHSDAAKKHRHERGHHRDRRERSRSFERSHKSKHHGGSRSGHGRHRR | 1.417
Q9UK58 2xPhospho [S335(100); S341(99.7)] (protein, UniProt Q9UK58 1-526, looked up, phosphorylated S335, S341) Cyclin-L1: MASGPHSTATAAAAASSAAPSAGGSSSGTTTTTTTTTGGILIGDRLYSEVSLTIDHSLIPEERLSPTPSMQDGLDLPSETDLRILGCELIQAAGILLRLPQVAMATGQVLFHRFFYSKSFVKHSFEIVAMACINLASKIEEAPRRIRDVINVFHHLRQLRGKRTPSPLILDQNYINTKNQVIKAERRVLKELGFCVHVKHPHKIIVMYLQVLECERNQTLVQTAWNYMNDSLRTNVFVRFQPETIACACIYLAARALQIPLPTRPHWFLLFGTTEEEIQEICIETLRLYTRKKPNYELLEKEVEKRKVALQEAKLKAKGLNPDGTPALSTLGGFSPASKPSSPREVKAEEKSPISINVKTVKKEPEDRQQASKSPYNGVRKDSKRSRNSRSASRSRSRTRSRSRSHTPRRHYNNRRSRSGTYSSRSRSRSRSHSESPRRHHNHGSPHLKAKHTRDDLKSSNRHGHKRKKSRSRSQSKSRDHSDAAKKHRHERGHHRDRRERSRSFERSHKSKHHGGSRSGHGRHRR | 1.387
Q86VP6 1xPhospho [T/S] (protein, UniProt Q86VP6 2-1230, looked up, phosphorylated) Cullin-associated …: ASASYHISNLLEKMTSSDKDFRFMATNDLMTELQKDSIKLDDDSERKVVKMILKLLEDKNGEVQNLAVKCLGPLVSKVKEYQVETIVDTLCTNMLSDKEQLRDISSIGLKTVIGELPPASSGSALAANVCKKITGRLTSAIAKQEDVSVQLEALDIMADMLSRQGGLLVNFHPSILTCLLPQLTSPRLAVRKRTIIALGHLVMSCGNIVFVDLIEHLLSELSKNDSMSTTRTYIQCIAAISRQAGHRIGEYLEKIIPLVVKFCNVDDDELREYCIQAFESFVRRCPKEVYPHVSTIINICLKYLTYDPNYNYDDEDEDENAMDADGGDDDDQGSDDEYSDDDDMSWKVRRAAAKCLDAVVSTRHEMLPEFYKTVSPALISRFKEREENVKADVFHAYLSLLKQTRPVQSWLCDPDAMEQGETPLTMLQSQVPNIVKALHKQMKEKSVKTRQCCFNMLTELVNVLPGALTQHIPVLVPGIIFSLNDKSSSSNLKIDALSCLYVILCNHSPQVFHPHVQALVPPVVACVGDPFYKITSEALLVTQQLVKVIRPLDQPSSFDATPYIKDLFTCTIKRLKAADIDQEVKERAISCMGQIICNLGDNLGSDLPNTLQIFLERLKNEITRLTTVKALTLIAGSPLKIDLRPVLGEGVPILASFLRKNQRALKLGTLSALDILIKNYSDSLTAAMIDAVLDELPPLISESDMHVSQMAISFLTTLAKVYPSSLSKISGSILNELIGLVRSPLLQGGALSAMLDFFQALVVTGTNNLGYMDLLRMLTGPVYSQSTALTHKQSYYSIAKCVAALTRACPKEGPAVVGQFIQDVKNSRSTDSIRLLALLSLGEVGHHIDLSGQLELKSVILEAFSSPSEEVKSAASYALGSISVGNLPEYLPFVLQEITSQPKRQYLLLHSLKEIISSASVVGLKPYVENIWALLLKHCECAEEGTRNVVAECLGKLTLIDPETLLPRLKGYLISGSSYARSSVVTAVKFTISDHPQPIDPLLKNCIGDFLKTLEDPDLNVRRVALVTFNSAAHNKPSLIRDLLDTVLPHLYNETKVRKELIREVEMGPFKHTVDDGLDIRKAAFECMYTLLDSCLDRLDIFEFLNHVEDGLKDHYDIKMLTFLMLVRLSTLCPSAVLQRLDRLVEPLRATCTTKVKANSVKQEFEKQDELKRSAMRAVAALLTIPEAEKSPLMSEFQSQISSNPELAAIFESIQKDSSSTNLESMDTS | 1.354
O75153 1xPhospho [S664(100)] (protein, UniProt O75153 1-1309, looked up, phosphorylated S664) Clustered mitochondria …: MLLNGDCPESLKKEAAAAEPPRENGLDEAGPGDETTGQEVIVIQDTGFSVKILAPGIEPFSLQVSPQEMVQEIHQVLMDREDTCHRTCFSLHLDGNVLDHFSELRSVEGLQEGSVLRVVEEPYTVREARIHVRHVRDLLKSLDPSDAFNGVDCNSLSFLSVFTDGDLGDSGKRKKGLEMDPIDCTPPEYILPGSRERPLCPLQPQNRDWKPLQCLKVLTMSGWNPPPGNRKMHGDLMYLFVITAEDRQVSITASTRGFYLNQSTAYHFNPKPASPRFLSHSLVELLNQISPTFKKNFAVLQKKRVQRHPFERIATPFQVYSWTAPQAEHAMDCVRAEDAYTSRLGYEEHIPGQTRDWNEELQTTRELPRKNLPERLLRERAIFKVHSDFTAAATRGAMAVIDGNVMAINPSEETKMQMFIWNNIFFSLGFDVRDHYKDFGGDVAAYVAPTNDLNGVRTYNAVDVEGLYTLGTVVVDYRGYRVTAQSIIPGILERDQEQSVIYGSIDFGKTVVSHPRYLELLERTSRPLKILRHQVLNDRDEEVELCSSVECKGIIGNDGRHYILDLLRTFPPDLNFLPVPGEELPEECARAGFPRAHRHKLCCLRQELVDAFVEHRYLLFMKLAALQLMQQNASQLETPSSLENGGPSSLESKSEDPPGQEAGSEEEGSSASGLAKVKELAETIAADDGTDPRSREVIRNACKAVGSISSTAFDIRFNPDIFSPGVRFPESCQDEVRDQKQLLKDAAAFLLSCQIPGLVKDCMEHAVLPVDGATLAEVMRQRGINMRYLGKVLELVLRSPARHQLDHVFKIGIGELITRSAKHIFKTYLQGVELSGLSAAISHFLNCFLSSYPNPVAHLPADELVSKKRNKRRKNRPPGAADNTAWAVMTPQELWKNICQEAKNYFDFDLECETVDQAVETYGLQKITLLREISLKTGIQVLLKEYSFDSRHKPAFTEEDVLNIFPVVKHVNPKASDAFHFFQSGQAKVQQGFLKEGCELINEALNLFNNVYGAMHVETCACLRLLARLHYIMGDYAEALSNQQKAVLMSERVMGTEHPNTIQEYMHLALYCFASSQLSTALSLLYRARYLMLLVFGEDHPEMALLDNNIGLVLHGVMEYDLSLRFLENALAVSTKYHGPKALKVALSHHLVARVYESKAEFRSALQHEKEGYTIYKTQLGEDHEKTKESSEYLKCLTQQAVALQRTMNEIYRNGSSANIPPLKFTAPSMASVLEQLNVINGILFIPLSQKDLENLKAEVARRHQLQEASRNRDRAEEPMATEPAPAGAPGDLGSQPPAAKDPSPSVQG | 1.363
P42684 1xPhospho [S631(100)] (protein, UniProt P42684 2-1182, looked up, phosphorylated S631) Tyrosine-protein kinase ABL2: GQQVGRVGEAPGLQQPQPRGIRGSSAARPSGRRRDPAGRTTETGFNIFTQHDHFASCVEDGFEGDKTGGSSPEALHRPYGCDVEPQALNEAIRWSSKENLLGATESDPNLFVALYDFVASGDNTLSITKGEKLRVLGYNQNGEWSEVRSKNGQGWVPSNYITPVNSLEKHSWYHGPVSRSAAEYLLSSLINGSFLVRESESSPGQLSISLRYEGRVYHYRINTTADGKVYVTAESRFSTLAELVHHHSTVADGLVTTLHYPAPKCNKPTVYGVSPIHDKWEMERTDITMKHKLGGGQYGEVYVGVWKKYSLTVAVKTLKEDTMEVEEFLKEAAVMKEIKHPNLVQLLGVCTLEPPFYIVTEYMPYGNLLDYLRECNREEVTAVVLLYMATQISSAMEYLEKKNFIHRDLAARNCLVGENHVVKVADFGLSRLMTGDTYTAHAGAKFPIKWTAPESLAYNTFSIKSDVWAFGVLLWEIATYGMSPYPGIDLSQVYDLLEKGYRMEQPEGCPPKVYELMRACWKWSPADRPSFAETHQAFETMFHDSSISEEVAEELGRAASSSSVVPYLPRLPILPSKTRTLKKQVENKENIEGAQDATENSASSLAPGFIRGAQASSGSPALPRKQRDKSPSSLLEDAKETCFTRDRKGGFFSSFMKKRNAPTPPKRSSSFREMENQPHKKYELTGNFSSVASLQHADGFSFTPAQQEANLVPPKCYGGSFAQRNLCNDDGGGGGGSGTAGGGWSGITGFFTPRLIKKTLGLRAGKPTASDDTSKPFPRSNSTSSMSSGLPEQDRMAMTLPRNCQRSKLQLERTVSTSSQPEENVDRANDMLPKKSEESAAPSRERPKAKLLPRGATALPLRTPSGDLAITEKDPPGVGVAGVAAAPKGKEKNGGARLGMAGVPEDGEQPGWPSPAKAAPVLPTTHNHKVPVLISPTLKHTPADVQLIGTDSQGNKFKLLSEHQVTSSGDKDRPRRVKPKCAPPPPPVMRLLQHPSICSDPTEEPTALTAGQSTSETQEGGKKAALGAVPISGKAGRPVMPPPQVPLPTSSISPAKMANGTAGTKVALRKTKQAAEKISADKISKEALLECADLLSSALTEPVPNSQLVDTGHQLLDYCSGYVDCIPQTRNKFAFREAVSKLELSLQELQVSSAAAGVPGTNPVLNNLLSCVQEISDVVQR | 1.3095
P54105 1xPhospho [S102(100)] (protein, UniProt P54105 2-237, looked up, phosphorylated S102) Methylosome subunit pICln: SFLKSFPPPGPAEGLLRQQPDTEAVLNGKGLGTGTLYIAESRLSWLDGSGLGFSLEYPTISLHALSRDRSDCLGEHLYVMVNAKFEEESKEPVADEEEEDSDDDVEPITEFRFVPSDKSALEAMFTAMCECQALHPDPEDEDSDDYDGEEYDVEAHEQGQGDIPTFYTYEEGLSHLTAEGQATLERLEGMLSQSVSSQYNMAGVRTEDSIRDYEDGMEVDTTPTVAGQFEDADVDH | 1.4484
Q8N1G2 1xPhospho [S66(100)] (protein, UniProt Q8N1G2 1-835, looked up, phosphorylated S66) Cap-specific mRNA …: MKRRTDPECTAPIKKQKKRVAELALSLSSTSDDEPPSSVSHGAKASTTSLSGSDSETEGKQHSSDSFDDAFKADSLVEGTSSRYSMYNSVSQKLMAKMGFREGEGLGKYSQGRKDIVEASSQKGRRGLGLTLRGFDQELNVDWRDEPEPSACEQVSWFPECTTEIPDTQEMSDWMVVGKRKMIIEDETEFCGEELLHSVLQCKSVFDVLDGEEMRRARTRANPYEMIRGVFFLNRAAMKMANMDFVFDRMFTNPRDSYGKPLVKDREAELLYFADVCAGPGGFSEYVLWRKKWHAKGFGMTLKGPNDFKLEDFYSASSELFEPYYGEGGIDGDGDITRPENISAFRNFVLDNTDRKGVHFLMADGGFSVEGQENLQEILSKQLLLCQFLMALSIVRTGGHFICKTFDLFTPFSVGLVYLLYCCFERVCLFKPITSRPANSERYVVCKGLKVGIDDVRDYLFAVNIKLNQLRNTDSDVNLVVPLEVIKGDHEFTDYMIRSNESHCSLQIKALAKIHAFVQDTTLSEPRQAEIRKECLRLWGIPDQARVAPSSSDPKSKFFELIQGTEIDIFSYKPTLLTSKTLEKIRPVFDYRCMVSGSEQKFLIGLGKSQIYTWDGRQSDRWIKLDLKTELPRDTLLSVEIVHELKGEGKAQRKISAIHILDVLVLNGTDVREQHFNQRIQLAEKFVKAVSKPSRPDMNPIRVKEVYRLEEMEKIFVRLEMKIIKGSSGTPKLSYTGRDDRHFVPMGLYIVRTVNEPWTMGFSKSFKKKFFYNKKTKDSTFDLPADSIAPFHICYYGRLFWEWGDGIRVHDSQKPQDQDKLSKEDVLSFIQMHRA | 1.309
